Compound potency records, mixed from different reports. Data source: NIAID ChemDB in PubChem.

Common to all: growth or infection tests; agent: Mycobacterium avium complex; endpoint: MIC

An empty or dashed field is not shown. Neighbouring rows are from separate reports. a–b is a range or a potency band.

structure,strain or isolate,result
CO[C@H]1/C=C/O[C@@]2(C)Oc3c(C)c(O)c4c(O)c(c(/C=N/N5CCN(C)CC5)c(O)c4c3C2=O)NC(=O)/C(C)=C\C=C\[C@H](C)[C@H](O)[C@@H](C)[C@@H](O)[C@@H](C)[C@H](OC(C)=O)[C@@H]1C,3214,1 µg/mL
CC1CN(c2c(F)cc3c(=O)c(C(=O)O)cn(C4CC4)c3c2F)C(C)CN1,PI12/39,2 µg/mL
CO[C@H]1/C=C/O[C@@]2(C)Oc3c(C)c(O)c4c(=O)c(c5oc6cc(N7CCN(C(C)C)CC7)cc(=O)c6nc5c4c3=C2O)NC(=O)/C(C)=C\C=C\[C@H](C)[C@H](O)[C@@H](C)[C@@H](O)[C@@H](C)[C@H](OC(C)=O)[C@@H]1C,31F093T,0.07 µg/mL
C[C@@H]1CN(c2c(F)c(N)c3c(=O)c(C(=O)O)cn(C4CC4)c3c2F)C[C@H](C)N1,101,0.25 µg/mL
CO/N=C(\C(=O)N[C@@H]1C(=O)N2C(C(=O)O)=C(COC(C)=O)CS[C@H]12)c1csc(N)n1,35 isolates,6.25 µg/mL
CN[C@@H]1[C@@H](O)[C@@H](O[C@@H]2[C@@H](O)[C@H](O[C@H]3O[C@H](CN)CC[C@H]3N)[C@@H](N)C[C@H]2N)OC[C@]1(C)O,31 strains,8 µg/mL
C[C@@H]1CN(c2c(F)c(N)c3c(=O)c(C(=O)O)cn(C4CC4)c3c2F)C[C@H](C)N1,,0.5 µg/mL
CC(C)N=c1cc2n(-c3ccc(Cl)cc3)c3ccccc3nc-2cc1Nc1ccc(Cl)cc1,Isolate A,1 µg/mL
CC1CN(c2c(F)cc3c(=O)c(C(=O)O)cn(C4CC4)c3c2F)CCN1,1915112,2 µg/mL
CO[C@H]1/C=C/O[C@@]2(C)Oc3c(C)c(O)c4c(O)c(c(/C=N/N5CCN(C)CC5)c(O)c4c3C2=O)NC(=O)/C(C)=C\C=C\[C@H](C)[C@H](O)[C@@H](C)[C@@H](O)[C@@H](C)[C@H](OC(C)=O)[C@@H]1C,,>25 µg/mL
CCn1cc(C(=O)O)c(=O)c2cc(F)c(N3CCNC(C)C3)c(F)c21,4 strains,2–8 µg/mL
c1ccc(CSc2nc3ccccc3[nH]2)cc1,MY330/88,>125 µM
CC1(C)S[C@@H]2[C@H](NC(=O)C(C(=O)O)c3ccccc3)C(=O)N2[C@H]1C(=O)O,31 strains,128 µg/mL
CO[C@H]1/C=C/O[C@@]2(C)Oc3c(C)c(O)c4c(O)c(c(/C=N/N5CCN(C)CC5)c(O)c4c3C2=O)NC(=O)/C(C)=C\C=C\[C@H](C)[C@H](O)[C@@H](C)[C@@H](O)[C@@H](C)[C@H](OC(C)=O)[C@@H]1C,CIPT 140310002,0.1 µg/mL
NC[C@H]1O[C@H](O[C@H]2[C@H](O)[C@@H](O[C@H]3O[C@H](CO)[C@@H](O)[C@H](N)[C@H]3O)[C@H](N)C[C@@H]2N)[C@H](N)C[C@@H]1O,101,>64 µg/mL
Clc1ccc(CSc2nc3ccccc3[nH]2)cc1,MY330/88,>16 µM
O=C(O)c1cn(C2CC2)c2c(F)c(N3CCC(NC4CC4)C3)c(F)cc2c1=O,1988557,1 µg/mL
NC(=O)c1cnccn1,101,>64 µg/mL
CC[C@@H](CO)NCCN[C@@H](CC)CO,3350-4,7.5 µg/mL
OC[C@H]1OC(O)C[C@@H](O)[C@@H]1O,TMC1463 (serovar 4),1000 µg/mL
FC(F)(F)c1cc(CSc2nc3ccccc3[nH]2)cc(C(F)(F)F)c1,MY330/88,>125 µM
CO[C@H]1/C=C/O[C@@]2(C)Oc3c(C)c(O)c4c(O)c(c(/C=N/N5CCN(C)CC5)c(O)c4c3C2=O)NC(=O)/C(C)=C\C=C\[C@H](C)[C@H](O)[C@@H](C)[C@@H](O)[C@@H](C)[C@H](OC(C)=O)[C@@H]1C,N-260,3.13 µg/mL
Clc1ccc(CSc2nc3ccccc3[nH]2)cc1Cl,MY330/88,16 µM
NCC[C@H](O)C(=O)N[C@@H]1C[C@H](N)[C@@H](O[C@H]2O[C@H](CN)[C@@H](O)[C@H](O)[C@H]2O)[C@H](O)[C@H]1O[C@H]1O[C@H](CO)[C@@H](O)[C@H](N)[C@H]1O,3211,32 µg/mL
CCCN1CCN(c2cc(=O)c3nc4c(oc3c2)c2c(=O)c3c(O)c(C)c5c(c34)=C(O)[C@@](C)(O/C=C/[C@H](OC)[C@@H](C)[C@@H](OC(C)=O)[C@H](C)[C@H](O)[C@H](C)[C@@H](O)[C@@H](C)/C=C/C=C(/C)C(=O)N2)O5)CC1,31F093T,0.07 µg/mL
CC[C@@H](CO)NCCN[C@@H](CC)CO,TMC1463 (serovar 4),5 µg/mL
NNC(=O)c1ccncc1,1129,2 µg/mL
O=C(O)c1cn(C2CC2)c2c(F)c(N3CCC(N4CCCC4)C3)c(F)cc2c1=O,PI12/39,1 µg/mL
CCn1cc(C(=O)O)c(=O)c2cc(F)c(N3CCNCC3)cc21,2 strains,>5 µg/mL
CO[C@H]1/C=C/O[C@@]2(C)Oc3c(C)c(O)c4c(O)c(c(/C=N/N5CCN(C)CC5)c(O)c4c3C2=O)NC(=O)/C(C)=C\C=C\[C@H](C)[C@H](O)[C@@H](C)[C@@H](O)[C@@H](C)[C@H](OC(C)=O)[C@@H]1C,1124,8 µg/mL
CCCCCCSc1nc2ccccc2[nH]1,MY330/88,62 µM
NC[C@H]1O[C@H](O[C@H]2[C@H](O)[C@@H](O[C@H]3O[C@H](CO)[C@@H](O)[C@H](N)[C@H]3O)[C@H](N)C[C@@H]2N)[C@H](O)[C@@H](O)[C@@H]1O,N-269 (HIV-),4 µg/mL
Brc1cccc(CSc2nc3ccccc3[nH]2)c1,MY330/88,>125 µM
CC1(C)S[C@@H]2[C@H](NC(=O)[C@H](N)c3ccccc3)C(=O)N2[C@H]1C(=O)O,31 strains,16 µg/mL
NCC[C@H](O)C(=O)N[C@@H]1C[C@H](N)[C@@H](O[C@H]2O[C@H](CN)[C@@H](O)[C@H](O)[C@H]2O)[C@H](O)[C@H]1O[C@H]1O[C@H](CO)[C@@H](O)[C@H](N)[C@H]1O,LPR,32 µg/mL
CN[C@@H]1[C@H](O[C@H]2[C@H](O[C@H]3[C@H](O)[C@@H](O)[C@H](N=C(N)N)[C@@H](O)[C@@H]3N=C(N)N)O[C@@H](C)[C@]2(O)C=O)O[C@@H](CO)[C@H](O)[C@H]1O,Isolate C-35,200 µg/mL
CC1(CN)CCN(c2c(F)cc3c(=O)c(C(=O)O)cn(C4CC4)c3c2F)C1,1172733,32 µg/mL
CCc1cc(C(N)=S)ccn1,Isolate A,4 µg/mL